A mixed list of measured activities; the numbers were collected in NIAID ChemDB.

Common to all: growth or infection tests; organism: HIV-1

Blank or dashed fields: not listed here.

structure,method,conditions,strain or isolate,measure,cells,changes,result
CCC(C1=C(O)CC(CCC2CC2)(CCC2CC2)OC1=O)c1cccc(NS(=O)(=O)c2ccc(C#N)cn2)c1,,,IIIB,EC90,H9,,1 µM
Cc1cc(C#Cc2cccc(N)c2)cc(C)c1Oc1ccnc(Nc2ccc(C#N)cc2)n1,MTT,,IIIB,EC50,MT-4,K103N,0.072 µM
O=C(O)P(=O)(O)O,,,LAI,EC50,PBMC,,0.43 µM
NS(=O)(=O)c1ccc(NC(=O)CSc2nncnc2-c2cccc3ccccc23)c(Br)c1,MTT,,,EC50,MT-4,,0.018 µM
Nc1ncnc2c1ncn2C=C1CC1CO,,,,EC50,MT-4,,26 µM
Nc1nc(N)c2ncn(CC(CF)OCP(=O)(O)O)c2n1,,,IIIB,EC50,PBL,,1.85 µM
CCC[C@@]1(CCc2ccccc2)CC(O)=C([C@@H](CC)c2cccc(NS(=O)(=O)c3ccc(C(F)(F)F)cn3)c2)C(=O)O1,,,IIIB,EC90,H9,,1.8 µM
Cc1cn([C@H]2C[C@H](N=[N+]=[N-])[C@@H](COP(=O)(O)OCCOc3ccc4ccccc4c3)O2)c(=O)[nH]c1=O,p24,,,EC50,,,1–10 µM
O=C1O[C@H]2[C@@H]3OC(=O)c4cc(O)c(O)c(O)c4-c4c(cc(O)c(O)c4O)C(=O)OC[C@H]2O[C@@H](OC(=O)c2cc(O)c(O)c(O)c2)[C@@H]3OC(=O)c2cc(O)c(O)c3c2[C@@H]2C1=CC(=O)[C@](O)(O3)C2(O)O,,,NRTI resistant (RT M184V) ARP145,EC50,MAGI,RT-M184V,0.95 µg/mL
O=c1[nH]cnc2c1ncn2[C@H]1CC[C@@H](CO)O1,p24,,ddI-resistant (RT K65R/L74V/M184V),EC50,PBMC,RT-A62V V75I F77L Q151M,>10 µM
CCC[C@]1(CCc2ccccc2)CC(O)=C([C@@H](CC)c2cccc(NS(=O)(=O)c3ccc(C(F)(F)F)cn3)c2)C(=O)O1,p24 / luminescence,,NL4-3,EC50,MT-4,,0.0332 µM
COC(=O)P(=S)(OC)OC[C@@H]1CC[C@H](n2cnc3c(=O)[nH]cnc32)O1,p24,,,EC50,,,0.09–23 µM
CN(C)CCN(C)CCCCCCCCOP(=O)(O)OC[C@H]1OC(O)[C@H](O)[C@@H](O)[C@@H]1O,RT activity,,LAI,EC50,CEM + CEM-4,,1 µM
CCCC1(CCc2ccc(F)cc2)CC(O)=C(C(CC)c2cccc(NS(=O)(=O)c3ccc(C#N)cn3)c2)C(=O)O1,,,IIIB,EC90,H9,,0.8 µM
CC(C)CN(C[C@@H](O)[C@H](Cc1ccccc1)NC(=O)O[C@H]1CCOC1)S(=O)(=O)c1ccc(N)cc1,MTT / p24,,NL4-3,EC50,MT-4,,0.0283 µM
CCC(c1ccccc1)c1c(O)c2ccccc2oc1=O,,,IIIB,EC50,H9,,100–300 µM
CC(C)CN(C[C@@H](O)[C@H](Cc1ccccc1)NC(=O)O[C@H]1[C@H]2CCCO[C@H]2O[C@@H]1C)S(=O)(=O)c1ccc(N)cc1,p24,,PR-L63P ERS104pre,EC50,PBMC,,0.034 µM
Fc1cccc(F)c1[C@H]1SCc2nc3ccccc3n21,cytopathic effect,,MN,EC50,MT-4,,0.14 µM
C[C@H](Cn1cnc2c(N)ncnc21)OCP(=O)(O)O,RT activity,,LAI,EC50,PBMC,,1.6 µM
Cc1cc(C#Cc2ccccn2)cc(C)c1Oc1ccnc(Nc2ccc(C#N)cc2)n1,MTT,,IIIB,EC50,MT-4,,0.006 µM
Cc1cn([C@@H]2O[C@H](CO[Si](C)(C)C(C)(C)C)C3(OS(=O)(=O)C=C3N)[C@H]2O[Si](C)(C)C(C)(C)C)c(=O)n(C)c1=O,cytopathic effect / MTT,,IIIB Recombinant wild type,EC50,MT-4,,0.00422 µM
CCC(C1=C(O)CC(CC(C)C)(CC(C)C)OC1=O)c1cccc(NS(=O)(=O)c2ccc(C#N)cn2)c1,,,IIIB,EC50,H9,,2.5 µM
Cc1cs/c(=N\S(=O)(=O)c2cccc([N+](=O)[O-])c2)n1C,cytopathic effect / MTT,,IIIB,EC50,MT-4,,>25 µM
CC(C)c1nc(CN(C)C(=O)N[C@H](C(=O)N[C@@H](Cc2ccccc2)C[C@H](O)[C@H](Cc2ccccc2)NC(=O)OCc2cncs2)C(C)C)cs1,cytopathic effect / MTT,,IIIB,EC50,MT-4,,0.026 µg/mL
CN(C)C(=O)Oc1nsnc1-c1cc(Cl)ccc1Cl,cytopathic effect / MTT,,IIIB-R (RT-Y181C),EC50,MT-4,RT-Y181C,>111 µM
CC(C)Cc1c(C(C)C)s/c(=N\S(=O)(=O)c2cccc([N+](=O)[O-])c2)n1C,cytopathic effect / MTT,,IIIB,EC50,MT-4,,>21.4 µM
Oc1cccc(CN(CCN2CCCCC2)CC2CCCN(C3CCCC3)C2)c1,β-galactosidase,,LAI,EC50,MAGI,,3 µM
COc1ccc2c(c1)N(C(=O)OC(C)C)[C@@H](CSC)C(=S)N2,cytopathic effect / MTT,,Recombinant mutant,EC50,MT-4,RT-A98S E138A,0.003 µM
Cc1cn([C@H]2C[C@H](N=[N+]=[N-])[C@@H](COP(=O)(O)C(=O)OCCSC(=O)C(C)(C)C)O2)c(=O)[nH]c1=O,cytopathic effect / MTT,,IIIB,EC50,MT-4,,7 µM
Nc1nc(NC2CC2)c2ncn([C@H]3C=C[C@@H](CO)C3)c2n1,cytopathic effect / MTT,,IIIB,EC50,MT-4,,1.6 µM
CC(C)Nc1cccnc1N1CCN(C(=O)c2cc3cc(NS(C)(=O)=O)ccc3[nH]2)CC1,MTT,,IIIB,EC50,MT-4,Y181C,1.916 µM
Nc1ncnc2c1ncn2CC(CF)OCP(=O)(O)O,,,IIIB,EC50,PBL,,3.9 µM
Nc1nc2c(ncn2[C@H]2CO[C@@H](CO)O2)c(=O)[nH]1,RT activity,,LAI,EC50,PBMC,,0.3 µM
Cc1cn([C@H]2C[C@H](N=[N+]=[N-])[C@@H](CO)O2)c(=O)[nH]c1=O,MTT,,T20R/C34R (subtype B),EC50,MT-4,,0.0005 µg/mL
CCN[C@H]1CO[C@@H]2OC[C@H](OC(=O)N[C@@H](Cc3ccccc3)[C@H](O)CN(CC(C)C)S(=O)(=O)c3ccc4nc(NC5CC5)sc4c3)[C@@H]21,MTT / p24,,NL4-3,EC50,MT-4,,0.0036 µM
CSC[C@H](NC(=O)COc1cccc2cnccc12)C(=O)N[C@@H](Cc1ccccc1)[C@H](O)C(=O)N1CSC(C)(C)[C@H]1C(=O)NC(C)(C)C,cytopathic effect,,LAI,EC50,ATH8,,0.1 µM
CC(=O)c1ccc(C)cc1NC(C(N)=O)c1c(Cl)cccc1Cl,cytopathic effect / MTT,,NL432,EC50,MT-4,,0.0063 µg/mL
Cc1c(C(C)C)s/c(=N\S(=O)(=O)c2cccc([N+](=O)[O-])c2)n1C,cytopathic effect / MTT,,IIIB,EC50,MT-4,,0.1 µM
CCn1c(=O)c(C)cn([C@@H]2O[C@H](CO[Si](C)(C)C(C)(C)C)C3(OS(=O)(=O)C=C3N)[C@H]2O[Si](C)(C)C(C)(C)C)c1=O,cytopathic effect / MTT,,IIIB Recombinant wild type,EC50,MT-4,,0.018 µM
CCC(NC(=O)c1ccc(NC(=O)CSc2nc3ncccc3n2-c2ccc(C3CC3)c3ccccc23)c(Cl)c1)C(=O)O,MTT,,RES056,EC50,MT-4,,>0.55 µM
Oc1ccccc1CN(CCN1CCCCC1)CC1CCCN(C2CCCC2)C1,MTT,,NL4-3,EC50,MT-4,,2.6 µM
Nc1ccn([C@H]2CC[C@@H](CO)O2)c(=O)n1,cytopathic effect / MTT,,IIIB,EC90,MT-4,,0.042 µg/mL
Oc1ccc(/C=C/c2cc(O)cc(O)c2)cc1,p24,clinical isolate,EJC-R1,EC50,PBMC,,>10 µM
c1cc(CN2CCCNCCNCCCNCC2)ccc1CN1CCCNCCNCCCNCC1,MTT,,K103N (subtype B),EC50,MT-4,,0.001 µg/mL
CC(C)c1s/c(=N\S(=O)(=O)c2cccc([N+](=O)[O-])c2)n(C)c1Cl,cytopathic effect / MTT,,IIIB,EC50,MT-4,,0.048 µM
Cc1cn([C@H]2C[C@H](N=[N+]=[N-])[C@@H](CO)O2)c(=O)[nH]c1=O,RT activity,,LAI,EC50,PBMC,,0.004 µM
CCCCN(CC)C(=O)Oc1nsnc1-c1c(Cl)cccc1Cl,cytopathic effect / MTT,,IIIB,EC50,MT-4,,0.33 µM
CC(Sc1nc2ncccc2n1-c1ccc(C2CC2)c2ccccc12)C(=O)Nc1ccc(C(N)=O)cc1Br,MTT,,RES056,EC50,MT-4,,>3.05 µM
CN(C)C(=O)Oc1nsnc1-c1cccc(Cl)c1Cl,cytopathic effect / MTT,,IIIB,EC50,MT-4,,0.94 µM
Fc1cccc(F)c1C1SCc2nc3ccccc3n21,cytopathic effect / XTT,,IIIB,EC50,CEM,RT-D138K,1.73 µM
CC(=O)c1ccc(NC(=O)CSc2nc3ncccc3n2-c2ccc(C3CC3)c3ccccc23)c(Br)c1,MTT,,RES056,EC50,MT-4,,>2.89 µM
Nc1nc(=O)n([C@@H]2CS[C@H](CO)O2)cc1F,RT activity,,LAI,EC50,PBMC,,0.008 µM
CC(C)c1cn(C)/c(=N/S(=O)(=O)c2cccc([N+](=O)[O-])c2)s1,cytopathic effect / MTT,,IIIB,EC50,MT-4,,3.1 µM
CC(C)(C)NC(=O)[C@@H]1C[C@@H]2CCCC[C@@H]2CN1CC(O)[C@H](Cc1ccccc1)NC(=O)[C@H](CC(N)=O)NC(=O)c1ccc2ccccc2n1.CS(=O)(=O)O,MTT / p24,,NL4-3,EC50,MT-4,,0.0028 µM
CN(C)C(=O)Oc1nsnc1-c1ccc(Cl)cc1,cytopathic effect / MTT,,IIIB-R (RT-Y181C),EC50,MT-4,RT-Y181C,>353 µM
Cc1cn([C@H]2C[C@H](N=[N+]=[N-])[C@@H](CO)O2)c(=O)[nH]c1=O,plaque count,,clinical isolate A036D (RT D67N K70R T215Y),EC50,HT4 + HT4-6C,RT-D67N K70R T215Y,5.6 µM
CCCC1(CCC)CC(O)=C([C@H](CC)c2cccc(NS(=O)(=O)c3ccc(C(F)(F)F)cn3)c2)C(=O)O1,,,IIIB,EC50,H9,,0.2 µM
CC(C)CN(C[C@@H](O)[C@H](Cc1ccccc1)NC(=O)O[C@H]1CCOC1)S(=O)(=O)c1ccc(N)cc1,cytopathic effect / MTT,,LAI,EC50,MT-2,,0.036 µM
CCCC1(CCC)CC(O)=C(C(CC)c2cccc(NS(=O)(=O)c3ccc(F)cc3)c2)C(=O)O1,,,IIIB,EC50,H9,,1.6 µM
COC(=O)c1ccc(NC(=O)CSc2nc3ncccc3n2-c2ccc(C3CC3)c3ccccc23)c(Br)c1,MTT,,RES056,EC50,MT-4,,>2.87 µM
Nc1ncc(CN(CCN2CCCCC2)CC2CCCN(C3CCCC3)C2)cn1,β-galactosidase,,LAI,EC50,MAGI,,7.8 µM
N#Cc1ccc(NC(=O)CSc2nc3ncccc3n2-c2ccc(C3CC3)c3ccccc23)c(Br)c1,MTT,,IIIB,EC50,MT-4,,>2.78 µM
CCOC(=O)P(=O)(OCc1ccc(Cl)cc1)OCc1ccc(Cl)cc1,RT activity,,LAI,EC50,CEM + CEM TK-,,>10 µM
CC(C)=CCN1Cc2cc(Cl)cc3[nH]c(=S)n(c23)C[C@@H]1C,cytopathic effect / MTT,,HXB2 (RT E138A S162C E169D T200A L214F) Clinical isolate,EC50,MT-4,RT-E138A S162C E169D T200A L214F,1.399 µM
Cc1c(O)cccc1C(=O)N[C@@H](CSc1ccccc1)[C@H](O)CN1C[C@H]2CCCC[C@H]2C[C@H]1C(=O)NC(C)(C)C,cytopathic effect / MTT,,IIIB,EC90,MT-4,,0.024 µg/mL
NC(=O)c1ccc(NC(=O)CSc2nc3ncccc3n2-c2ccc(C3CC3)c3ccccc23)c(Br)c1,MTT,,IIIB,EC50,MT-4,,0.073 µM
Cc1cn([C@H]2C[C@H](N=[N+]=[N-])[C@@H](CO)O2)c(=O)[nH]c1=O,MTT,,IIIB,EC50,MT-4,Y188L,0.004 µM
Fc1cccc(F)c1[C@@H]1SCc2nc3ccccc3n21,cytopathic effect,,HE,EC50,MT-4,,1.83 µM
Nc1ncnc2c1ncn2CCOCP(=O)(O)O,p24,,LAI,EC50,H9,,4.45 µM
CC(C)(C)C(=O)SCCOC(=O)P(=O)(O)OCCSC(=O)C(C)(C)C,RT activity,,LAI,EC50,CEM + CEM TK-,,20 µM
CCCC1(CCC)CC(O)=C(C(CC)c2cccc(NS(=O)(=O)c3ccc(C(N)=O)cn3)c2)C(=O)O1,,,IIIB,EC50,H9,,1.9 µM
Nc1ccn([C@H]2CC[C@@H](CO)O2)c(=O)n1,cytopathic effect / MTT,,IIIB,EC50,MT-4,,0.35 µM
CCCCN(C)C(=O)Oc1nsnc1-c1c(Cl)cccc1Cl,cytopathic effect / MTT,,IIIB,EC50,MT-4,,0.02 µM
C[C@@H]1O[C@@H]2OCCC[C@@H]2[C@@H]1OC(=O)N[C@@H](Cc1ccccc1)[C@H](O)CN1C[C@H]2CCCC[C@H]2C[C@H]1C(=O)NC(C)(C)C,cytopathic effect / MTT,,LAI,EC50,MT-2,,0.006 µM
Cc1cn([C@H]2C[C@H](N=[N+]=[N-])[C@@H](COP(=O)(O)OCCCCCCCCN3CCN(C)CC3)O2)c(=O)[nH]c1=O,RT activity,,LAI,EC50,CEM + CEM-4,,0.4 µM
O=C(CSc1nc2ncccc2n1-c1ccc(C2CC2)c2ccccc12)Nc1cccnc1Cl,MTT,,IIIB,EC50,MT-4,,0.22 µM
CCCCCCCCOC(=O)P(=O)(OCc1ccc(Cl)cc1)OCc1ccc(Cl)cc1,RT activity,,LAI,EC50,CEM + CEM TK-,,7.4 µM

The first 6 rows once more:

structure	method	conditions	strain or isolate	measure	cells	changes	result
CCC(C1=C(O)CC(CCC2CC2)(CCC2CC2)OC1=O)c1cccc(NS(=O)(=O)c2ccc(C#N)cn2)c1			IIIB	EC90	H9		1 µM
Cc1cc(C#Cc2cccc(N)c2)cc(C)c1Oc1ccnc(Nc2ccc(C#N)cc2)n1	MTT		IIIB	EC50	MT-4	K103N	0.072 µM
O=C(O)P(=O)(O)O			LAI	EC50	PBMC		0.43 µM
NS(=O)(=O)c1ccc(NC(=O)CSc2nncnc2-c2cccc3ccccc23)c(Br)c1	MTT			EC50	MT-4		0.018 µM
Nc1ncnc2c1ncn2C=C1CC1CO				EC50	MT-4		26 µM
Nc1nc(N)c2ncn(CC(CF)OCP(=O)(O)O)c2n1			IIIB	EC50	PBL		1.85 µM

ECn: concentration that inhibits the pathogen or its effect by n%. Conditions beyond the fields shown may differ between rows. Two numbers with a dash give a range or band.